The list shows a part of the results, in another mix than the full data. Active and inactive are the calls of the source. Cut-off read from the data, not from the text of the source: active = activity change below about -50%; inconclusive = between about -30% and that limit; inactive = weaker than that.
biological target: Mucolipin-1 (Homo sapiens) (UniProt Q9GZU1); assay: qHTS for Inhibitors of the Human Mucolipin Transient Receptor Potential 1 (TRPML1); conditions: TRPML1-inducible cells, Ca2+ dye fluorescence, FDSS; hits give low values; inhibition of EC80 agonist-evoked calcium signal;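 note: stimulus is agonist 54-4 at its EC80 concentration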
Text: Mutations of human Mucolipin transient receptor potential 1 (TRPML1) cause type IV mucolipidosis (ML4), a devastating neurodegenerative disease in young children. […] Currently, there is no treatment for ML4. […] Under physiological conditions, TRPMLs regulate membrane trafficking by transducing information about PI(3,5)P2 levels into changes in juxtaorganellar Ca2+, thereby triggering membrane fusion/fission events in the late endocytic pathways (endolysosomal trafficking). In addition, TRPML1 mediates release of Fe2+ from late endosomes and lysosomes, which is essential for cellular iron metabolism. Thus, impaired ion (Ca2+ and Fe2+) homeostasis underlies lysosomal dysfunction and ML4 phenotypes. In ML4 cells, the problem is twofold. First, defective Ca2+-dependent membrane trafficking due to TRPML1-deficiency causes accumulation of lipids and other bio-materials in the lysosome. The second strike comes from the lysosomal iron overload (due to impairment of TRPML1's Fe2+ conductivity), which converts the accumulated materials into the nondegradable (resistant to lysosomal degradation) lipofuscin (also called aging pigment) in the lysosome. Lipofuscin accumulation dramatically compromises the functions of lysosomes.
Niemann-Pick type C (NPC) disease is another lysosome storage disease (LSD) with severe neurodegeneration during the childhood. Currently, there is no cure for NPC. […] Thus, TRPML1 is likely to be an essential regulator of lysosome ion homeostasis. We specifically hypothesize that stimulating TRPML1's Fe2+/Ca2+ channel activity in the lysosome using synthetic agonists can alleviate neurodegeneration associated with ML4 or NPC.
To this end, a high throughput screen was developed in a miniaturized format to screen against the Molecular Libraries Small Molecule Repository (MLSMR) to find small molecules that act either as inhibitors or agonist against the TRPML1 channel.
NIH Chemical Genomics Center [NCGC]
NIH Molecular Libraries Probe Centers Network [MLPCN]
Assay Submitter (PI): Haoxing Xu, University of Michigan Ann Arbor
TRPML1-DL cells are dissociated from flasks, counted and, brought up to a density of 500,000 cells per mL of media containing a 1X Tet inducer. Using a Multidrop Combi, 3 uL of this cell solution is dispensed to each well of a 1536 TC treated, black, clear bottom hi base plate for a final cell density of 1,500 cells per well. The assay plates are incubated overnight (approximately 16 hours) at 37 degrees C and 5% CO2. Using a Multidrop Combi, 2 uL of ABD Ca8 no wash dye plus quencher is added to each well. The assay plates incubate at room temperature in the dark for 45-90 minutes. The assay plate is read on the FDSS using the following protocol: 10 second baseline read, 23 nL of compounds and controls are added using 1536 pintool, agonist read for 110 seconds, 1 uL EC80 addition (4 uM final 54-4 diluted in media), antagonist read for 110 seconds.
% is set by controls: 0 for no effect and ±100 for the full control effect.

By UniProt entry, the sequences of proteins in these tests, tags left out.
UniProt Q9GZU1, whole entry: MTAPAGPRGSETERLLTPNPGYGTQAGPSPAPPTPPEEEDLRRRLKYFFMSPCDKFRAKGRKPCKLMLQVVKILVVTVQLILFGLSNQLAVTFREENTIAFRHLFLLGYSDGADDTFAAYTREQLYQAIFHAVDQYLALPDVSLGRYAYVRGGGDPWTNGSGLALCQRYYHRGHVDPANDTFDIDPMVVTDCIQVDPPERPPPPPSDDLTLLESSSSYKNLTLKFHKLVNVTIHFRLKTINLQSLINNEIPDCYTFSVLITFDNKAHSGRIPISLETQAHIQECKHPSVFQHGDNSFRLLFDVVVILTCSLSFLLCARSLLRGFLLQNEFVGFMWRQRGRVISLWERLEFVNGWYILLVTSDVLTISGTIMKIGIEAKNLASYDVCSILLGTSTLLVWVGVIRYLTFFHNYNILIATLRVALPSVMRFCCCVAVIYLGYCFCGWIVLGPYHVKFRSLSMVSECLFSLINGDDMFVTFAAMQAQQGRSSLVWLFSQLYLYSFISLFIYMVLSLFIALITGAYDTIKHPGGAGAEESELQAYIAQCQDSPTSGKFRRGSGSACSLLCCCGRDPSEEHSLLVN

Compound	activity change, negative = inhibition
Cc1cc(C)cc(OP(C)(=O)Nc2ccc(SC(F)(F)F)cc2)c1 (stereo not drawn)	inactive: 52.6%
CP(=O)(Nc1ccc(SC(F)(F)F)cc1)Oc1ccc(Cl)cc1 (stereo not drawn)	inactive: 46%
Cc1cccc(C)c1OP(C)(=O)Nc1ccc(SC(F)(F)F)cc1 (stereo not drawn)	inactive: 2.51%
COP1(=S)c2c(C)nn(CCC#N)c2N=C(c2ccc(F)cc2)N1C (stereo not drawn)	inactive: 4.2%
CP(=O)(Oc1ccccc1)OC(c1ccccc1)C(F)(F)F (stereo not drawn)	inactive: 28%
CCC(C)N(CC(C)C)C(=S)SC(NC(C)=O)C(Cl)(Cl)Cl (stereo not drawn)	inactive: -11.7%
CP(=O)(Nc1ccccn1)Oc1ccc(Cl)cc1 (stereo not drawn)	inactive: 0.423%
CCOP(=O)(Nc1cccc2cccnc12)OCC	inactive: -0.317%
CCOP(C)(=S)SCC(=O)NC(C)C(=O)O (stereo not drawn)	inactive: 23.7%
O=C(OC1CN2CCC1CC2)c1cccc([N+](=O)[O-])c1 (stereo not drawn)	inactive: -11.1%
CSc1ccc(Nc2c([N+](=O)[O-])cc([N+](=O)[O-])cc2[N+](=O)[O-])cc1	inactive: 9.92%
O=[N+]([O-])c1cc([N+](=O)[O-])c(O)c([N+](=O)[O-])c1.c1ccc(Oc2ccncc2)cc1	inactive: -4.95%
CCOC(=O)c1ccc(NP(C)(=O)Oc2ccc(OC)cc2)cc1 (stereo not drawn)	inactive: 6.32%
CCOC(=O)c1ccc(NC(=O)C(C)(CCl)SC)cc1 (stereo not drawn)	inactive: 35.2%
COP(=O)(OC)N1CC1c1ccccc1 (stereo not drawn)	inactive: 13.4%
CCCCOc1ccc(C(=O)NCC2(N3CCCCC3)CCCCC2)cc1OC	inactive: -1.54%
Cc1cc(SC(NC(=O)c2ccccc2)C(Cl)(Cl)Cl)nc(C(C)C)n1 (stereo not drawn)	inactive: -14.2%
O=C(O)C(=O)c1ccc(N(CCCl)CCCl)cc1.c1ccc(Nc2ccccc2)cc1	inactive: 92.3%
CC1CCNP(=O)(N(CCCl)CCCl)O1 (stereo not drawn)	inactive: 7.16%
Cc1cc(SC(NC=O)C(Cl)(Cl)Cl)ncn1 (stereo not drawn)	inactive: 15.5%
O=P(Nc1ccccn1)(c1cccc2ccccc12)c1cccc2ccccc12	inactive: -17%
COc1ccccc1OP(C)(=O)Nc1ccccc1 (stereo not drawn)	inactive: 14.6%

Compound	activity change, negative = inhibition
CP(=O)(Nc1ccccc1Br)Oc1ccccc1 (stereo not drawn)	inactive: -10.3%
O=[N+]([O-])c1ccc(Nc2ccc(Oc3ccc([N+](=O)[O-])cc3[N+](=O)[O-])cc2)c([N+](=O)[O-])c1	inactive: 4.91%
CP(=S)(Nn1cnnc1)Oc1ccccc1 (stereo not drawn)	inactive: -9.66%
CCOC(=O)Nc1cccc([As](=O)(O)O)c1	inactive: 48.2%
O=[N+]([O-])c1cc([N+](=O)[O-])c(Nc2nnnn2CCO)c([N+](=O)[O-])c1	inactive: -4.55%
CC1=C2N=C(C=C3N=C(C(C)=C4[N-][C@@](C)([C@@H]5N=C1[C@](C)(CCC(=O)NC[C@@H](C)OP(=O)([O-])O[C@H]1[C@@H](O)[C@@H](n6cnc7cc(C)c(C)cc76)O[C@@H]1CO)[C@H]5CC(N)=O)[C@@](C)(CC(N)=O)[C@@H]4CCC(N)=O)[C@@](C)(CC(N)=O)[C@@H]3CCC(N)=O)C(C)(C)[C@@H]2CCC(N)=O.[C-]#N.[Co+3]	inactive: -5.45%
CN(C)C1(CNC(=O)c2ccc(S(C)(=O)=O)cc2)CCCCC1	inactive: 0.819%
O=C(/C=C/c1ccccc1)OC1CN2CCC1CC2 (stereo not drawn)	inactive: -4.04%
CCCC1OP(=O)(Nc2ccccc2)OCC1CC (stereo not drawn)	inactive: 3.75%
Cc1nn(-c2ccccc2)c2c1P(=O)(N1CCOCC1)N(C)C(c1ccccc1)=N2 (stereo not drawn)	inactive: 6.86%
Cc1ccc(C(=O)OC2CN3CCC2CC3)cc1 (stereo not drawn)	inactive: 6.39%
CC1CCC(C(C)C)C(OP(=O)(Nc2ccccn2)c2ccccc2)C1 (stereo not drawn)	inactive: 9.52%
COc1cc(C2NCCC3(OCCO3)C2(C)C)cc(OC)c1OC.O=[N+]([O-])c1cc([N+](=O)[O-])c(O)c([N+](=O)[O-])c1 (stereo not drawn)	inactive: 12.7%
Nc1cccc([As](=O)(O)c2ccccc2)c1	inactive: -13.4%
CP(=O)(Nc1ccc(SC(F)(F)F)cc1)Oc1ccccc1 (stereo not drawn)	inactive: 28.8%
CCCOc1ccc(NP(C)(=O)Oc2ccc(Cl)cc2)cc1 (stereo not drawn)	inactive: 22.6%
NS(=O)(=O)c1cccc(NC(=O)COC(=O)C(O)(c2ccccc2)c2ccccc2)c1	inactive: 0.487%
O=P1(Nc2ccc(Br)cn2)COc2ccccc2OC1	inactive: -15.4%
Cc1ccc(OCC(=O)OC2CN3CCC2CC3)cc1 (stereo not drawn)	inactive: 15.2%
O=[As](O)(c1cccs1)c1cccs1	inactive: -0.507%
O=P1(Nc2ncccn2)COc2ccccc2OC1	inactive: 1.12%
CN1CCCCC1COC(=O)C1(O)c2ccccc2CCc2ccccc21 (stereo not drawn)	inactive: -16.9%

Compound	activity change, negative = inhibition
COc1ccccc1OP(C)(=O)Nc1c(C)cccc1C (stereo not drawn)	inactive: 2.81%
Clc1n[nH]nc1-c1nn[nH][15n]1	inactive: -23.6%
O=P1(N(CCCl)CCCl)NCCC(C(F)(F)F)O1 (stereo not drawn)	inactive: 13.5%
CC(C)(C)C(=O)NC(Sc1ncccn1)C(Cl)(Cl)Cl (stereo not drawn)	inactive: 15.5%
O=C(O)C(O)c1ccc(N(CCCl)CCCl)cc1.c1ccncc1 (stereo not drawn)	inactive: 8.96%
CCC1=CC2Cc3nc4ccc(Cl)cc4c(N)c3C(C1)C2 (stereo not drawn)	inactive: 0.974%
O=P1(Nc2ccccn2)COc2ccccc2OC1	inactive: 2.58%
CCOP(=O)(NC(=NC(C)c1ccccc1)NC(C)c1ccccc1)OCC (stereo not drawn)	inactive: 6.89%
O=[N+]([O-])c1cc([N+](=O)[O-])c(-n2nnc3ccccc32)c([N+](=O)[O-])c1	inactive: -15.5%
CN(CCCl)Cc1cc(Cl)c(NC2=NCCN2)c(Cl)c1	inactive: 35.4%
CCOP(=O)(Nc1ccc(C)cn1)OCC	inactive: -27.4%
CN(C(=O)Cc1ccc(Cl)c(Cl)c1)[C@@H]1CCCC[C@H]1N1CCCC1	inactive: -1.05%
CC(C)/C=N\N=C(\N)N[N+](=O)[O-]	inactive: -2.55%
CC1(CBr)Cn2c(nc3ccccc3c2=O)S1 (stereo not drawn)	inactive: 4.76%
Cc1nc2ccc3ccccc3c2s1.O=[N+]([O-])c1cc([N+](=O)[O-])c(O)c([N+](=O)[O-])c1	inactive: -3.75%
O=[N+]([O-])c1cc([N+](=O)[O-])c(-c2cnn(-c3ccccc3)c2)c([N+](=O)[O-])c1	inactive: -4.11%
COc1ccccc1CNC(=O)COC(=O)C(O)(c1ccccc1)c1ccccc1	inactive: 7.75%
O=[As](O)(c1cccc(O)c1)c1cccc(O)c1	inactive: -9.58%
Cc1cccc(OCC(=O)OC2CN3CCC2CC3)c1 (stereo not drawn)	inactive: 12%
Cc1cc(C)cc(OP(C)(=O)Nc2ccc(C)cc2C)c1 (stereo not drawn)	inactive: 34.3%
CCOC(=O)c1ccc(NP(C)(=O)Oc2cc(C)cc(C)c2)cc1 (stereo not drawn)	inactive: -6.33%
O=C(OC1CN2CCC1CC2)c1ccc(Cl)cc1 (stereo not drawn)	inactive: -9.96%

Compound	activity change, negative = inhibition
COc1cc(C(=O)NCC2(N3CCOCC3)CCCCC2)cc(Cl)c1OC(C)C	inactive: -2.65%
CS(=O)(=O)c1ccc(Cl)c(NC(=O)COC(=O)C(O)(c2ccccc2)c2ccccc2)c1	inactive: 11.1%
CCOP(=O)(Nc1cccc2ccccc12)OCC	inactive: 16.9%
CP(=O)(Nc1cccc(Br)c1)Oc1ccccc1 (stereo not drawn)	inactive: -3.41%
Cc1cc(C)cc(OP(C)(=O)Nc2ccccn2)c1 (stereo not drawn)	inactive: -10.8%
Cc1ccc(NCCc2c([N+](=O)[O-])cc([N+](=O)[O-])cc2[N+](=O)[O-])cc1	inactive: -6.25%
Nc1cccc2c([As](=O)(O)O)cccc12	inactive: -1.5%
CCCOP(=S)(Nc1nc(N)cc(=O)[nH]1)OCCC	inactive: -2.81%
Cc1ccc(C)c(NP(C)(=O)Oc2ccccc2)c1 (stereo not drawn)	inactive: 11.2%
Nc1ccccc1[As](=O)(O)c1ccccc1	inactive: 7.25%
CCOP1(=S)c2c(C)nn(CCC#N)c2N=C(c2ccccc2F)N1C (stereo not drawn)	inactive: -7.75%
O=P(Nc1nccs1)(c1ccccc1)c1nc2ccccc2s1 (stereo not drawn)	inactive: 0.99%
O=P(Nc1nccs1)(Oc1ccccc1)Oc1ccccc1	inactive: 12.6%
CS(=O)(=O)c1cc([N+](=O)[O-])c2no[n+]([O-])c2c1	inactive: -3.99%
N#CCCN(C(=O)COC(=O)C(O)(c1ccccc1)c1ccccc1)c1ccc(F)cc1	inactive: 31.8%
CN(C(=O)Cc1ccccc1)[C@@H]1CC[C@]2(CCCO2)C[C@H]1N1CCCC1	inactive: 2.16%
CCOP1(=S)c2c(C)nn(CCC#N)c2N=C(c2ccc(F)cc2)N1C (stereo not drawn)	inactive: 19.3%
CN(C)C(=O)c1cc([N+](=O)[O-])cc2c1-c1c(cc([N+](=O)[O-])cc1[N+](=O)[O-])C2=O	inactive: 8.48%
O=[N+]([O-])c1ccc2c(c1)nnn2O	inactive: -8.14%
CN(C(=O)Cc1ccc(Cl)c(Cl)c1)[C@H]1CC[C@@]2(CCCO2)C[C@@H]1N1CCCC1	inactive: 15.5%
CC1=NCCc2c1[nH]c1ccccc21.O=[N+]([O-])c1cc([N+](=O)[O-])c(O)c([N+](=O)[O-])c1	inactive: -1.39%
NC(=O)Nc1ccc([As](=O)(O)O)cc1	inactive: -5.82%

Source: PubChem BioAssay AID624415 (National Center for Advancing Translational Sciences (NCATS), 2012)
